This passage reports inhibition results from PubChem BioAssay AID2315 (National Center for Advancing Translational Sciences (NCATS), 2010).

The entries are a selection whose mix differs from that of the whole data set. Active and inactive are the calls of the source. Cut-off read from the data, not from the text of the source: active = inhibition mostly above about 28% (no sharp cut-off); inactive = mostly below about 43%.

A short description of this assay: A qHTS for Small Molecule Inhibitors of Shiga Toxin. Note: 0% is about no effect. Conditions: Vero cells, Shiga toxin protein synthesis inhibition reporter; at 38.7 µM, active compounds read high. Background: qHTS replaces the single test concentration by a dilution series.
For the compound `COc1ccccc1OP(C)(=O)Nc1ccc(C)cc1` (centres undefined), the inhibition (as a rule, the change of the read-out against control, counted positive when it falls) is inactive: 2.35%.

Take `Cc1ccc(NP(C)(=O)Oc2ccccc2)c(C)c1` (centres undefined): the inhibition is inactive: 25.8%.

Take `CCOC(=O)c1ccc(NP(C)(=O)Oc2ccccc2)cc1` (centres undefined): the inhibition is inactive: 10.1%.

For `CCN(CC)CCCOC(=O)C(O)(c1ccccc1)c1ccccc1`, the inhibition was inactive: 1.29%.

As to `CCc1ccc(OP(C)(=O)N2CCN(c3ccc([N+](=O)[O-])cc3)CC2)cc1` (centres undefined), the inhibition was inactive: -14.9%.

Consider `CP(=O)(NC(=O)Nc1ccccc1)Oc1ccccc1` (centres undefined), for which the inhibition is inactive: -24.8%.

`Cc1cc(C)cc(OP(C)(=O)Nc2ccc(SC(F)(F)F)cc2)c1` (centres undefined): the inhibition was inactive: 5.56%.

As to `CP(=O)(Nc1ccc(SC(F)(F)F)cc1)Oc1ccc(Cl)cc1` (centres undefined), the inhibition is inactive: 18.6%.

Consider `Cc1cccc(C)c1OP(C)(=O)Nc1ccc(SC(F)(F)F)cc1` (centres undefined), for which the inhibition was inactive: 7.52%.

As to `CP(=O)(Oc1ccccc1)OC(c1ccccc1)C(F)(F)F` (centres undefined), the inhibition is inactive: -1.83%.

Take `CP(=O)(Nc1ccccn1)Oc1ccc(Cl)cc1` (centres undefined): the inhibition is inactive: -6.96%.

As to `CCOC(=O)c1ccc(NP(C)(=O)Oc2ccc(OC)cc2)cc1` (centres undefined), the inhibition was inactive: -9.67%.

On to `CCOP(C)(=S)SCC(=O)NC(C)C(=O)O` (centres undefined), for which the inhibition is inactive: 13.4%.

For the compound `CP(=O)(Nc1ccccc1Br)Oc1ccccc1` (centres undefined), the inhibition was inactive: 10.3%.

`COc1ccccc1OP(C)(=O)Nc1ccccc1` (centres undefined): the inhibition is inactive: -9.3%.

Regarding `CP(=S)(Nn1cnnc1)Oc1ccccc1` (centres undefined), the inhibition was inactive: -8.9%.

For `O=[N+]([O-])c1cc([N+](=O)[O-])c(Nc2nnnn2CCO)c([N+](=O)[O-])c1`, the inhibition is inactive: -9.08%.

As to `CP(=O)(Nc1ccc(SC(F)(F)F)cc1)Oc1ccccc1` (centres undefined), the inhibition is inactive: 0.722%.

With `CCCOc1ccc(NP(C)(=O)Oc2ccc(Cl)cc2)cc1` (centres undefined), the inhibition is inactive: -2.96%.

Turning to `CN1CCCCC1COC(=O)C1(O)c2ccccc2CCc2ccccc21` (centres undefined), the inhibition was inactive: -14.9%.

As for `COc1ccccc1OP(C)(=O)Nc1c(C)cccc1C` (centres undefined), the inhibition is inactive: -17.2%.

As for `CC(C)N(CCCl)C(C)C`, the inhibition was inactive: 26.5%.

In the case of `O=[N+]([O-])c1cc([N+](=O)[O-])c(-n2nnc3ccccc32)c([N+](=O)[O-])c1`, the inhibition was inactive: -12.8%.

On to `Cc1nc2ccc3ccccc3c2s1.O=[N+]([O-])c1cc([N+](=O)[O-])c(O)c([N+](=O)[O-])c1`, for which the inhibition was inactive: 7.93%.

Turning to `CCOC(=O)c1ccc(NP(C)(=O)Oc2cc(C)cc(C)c2)cc1` (centres undefined), the inhibition was inactive: -6.07%.

`Cc1cc(C)cc(OP(C)(=O)Nc2ccc(C)cc2C)c1` (centres undefined): the inhibition is inactive: -5.57%.

As for `COc1ccccc1OP(C)(=O)Nc1cccc(Br)c1` (centres undefined), the inhibition was inactive: -3.62%.

Regarding `Cc1ccc(C)c(NP(C)(=O)Oc2ccccc2)c1` (centres undefined), the inhibition is inactive: -4.44%.

Regarding `CP(=O)(Nc1cccc(Br)c1)Oc1ccccc1` (centres undefined), the inhibition is inactive: -8.73%.

Turning to `Cc1cc(C)cc(OP(C)(=O)Nc2ccccn2)c1` (centres undefined), the inhibition was inactive: -3.06%.

As to `Cc1ccc(NCCc2c([N+](=O)[O-])cc([N+](=O)[O-])cc2[N+](=O)[O-])cc1`, the inhibition was inactive: 10.3%.

Take `CS(=O)(=O)c1cc([N+](=O)[O-])c2no[n+]([O-])c2c1`: the inhibition was inactive: 9.18%.

Consider `CC1=NCCc2c1[nH]c1ccccc21.O=[N+]([O-])c1cc([N+](=O)[O-])c(O)c([N+](=O)[O-])c1`, for which the inhibition is inactive: -11.1%.

Take `O=[N+]([O-])OCC(CO[N+](=O)[O-])(CO[N+](=O)[O-])CO[N+](=O)[O-]`: the inhibition was inactive: 16.3%.
